A mixed list of measured activities; the numbers were collected in NIAID ChemDB.

Shared fields: whole-cell or culture tests; species: Hepatitis C virus; cell line: Huh7; endpoint: EC50

Blank or dashed fields: not listed here. a–b is a range or a potency band. ECn is the concentration giving n% inhibition of infection, replication or growth. Neighbouring rows are from separate reports.

SMILES,strain,changes,method,result
O=C(O)/C=C/c1ccc(NC(=O)C2(NC(=O)c3ccc4c(c3)nc(-c3ccco3)n4C3CCCCC3)CCCC2)cc1,-,-,-,≤5 µM
CCCCNC(=O)c1ccc(-c2ccc3nc(N)nc(OC(C)C)c3n2)cc1,-,-,replicon,0.3–1 µM
CC[C@@H](NC(=O)c1ccc2c(c1)nc(-c1ccoc1)n2C1CCCCC1)C(=O)Nc1ccc(/C=C/C(=O)O)cc1,-,-,-,5–50 µM
COc1cccc(CC(=O)N/N=C/c2cccc(OC)c2OS(=O)(=O)c2ccc(C)cc2)c1,-,-,replicon,5–50 µM
CCOc1nc(N)nc2ccc(-c3ccc(NC(=O)C4CC4)cc3)nc12,-,-,replicon,<0.3 µM
COC(=O)/C=C/c1ccc(NC(=O)C2(NC(=O)c3ccc4c(C5CCCCC5)c5n(c4c3)CCCc3ocnc3-5)CCCC2)cc1,-,-,replicon,1–10 µM
C[C@@H](NC(=O)OCc1ccccc1)C(=O)Nc1ccc(C2SC(=Nc3ccc4c(c3)CCC4)N(Cc3ccco3)C2=O)cc1,-,-,replicon,1–5 µM
C=C[C@@H]1C[C@]1(NC(=O)c1ccc2c(c1)nc(-c1ccoc1)n2C1CCCCC1)C(=O)Nc1ccc(/C=C/C(=O)O)cc1,-,-,-,≤5 µM
CNC(=O)c1c(-c2ccc(F)cc2)oc2cc(N(CCN3CCOCC3)S(C)(=O)=O)c(OC(C)C)cc12,-,-,replicon,<1 µM
CO[C@H](C(=O)N1CCC[C@@H]1C(=O)Nc1ccc(C2SC(=Nc3ccc(N4CCOCC4)cc3)N(Cc3ccccn3)C2=O)cc1)c1ccccc1,-,-,replicon,<0.1 µM
CSc1ncccc1C(=O)N/N=C/c1ccccc1OS(=O)(=O)c1ccc(C(F)(F)F)cc1,-,-,replicon,<5 µM
CNC(=O)c1c(-c2ccc(F)cc2)oc2cc(S(=O)(=O)NC3CCC3)c(OC(C)C)cc12,-,-,replicon,<30 µM
C=C[C@@H]1C[C@]1(NC(=O)[C@@H]1C[C@@H](Oc2cc(-c3ccccc3)nc3cc(OC)ccc23)CN1C(=O)[C@@H](NC(=O)OCCF)C(C)(C)C)C(=O)NS(=O)(=O)C1CC1,1b,-,replicon,<0.05 µM
O=C(O)/C=C/c1ccc(NC(=O)C2(NC(=O)c3ccc4c(c3)nc(-c3ccoc3)n4C3CCCCC3)CCCCC2)cc1,-,-,-,≤5 µM
C=C[C@@H]1C[C@]1(NC(=O)[C@@H]1C[C@@H](Oc2cc(-c3ccccc3)nc3cc(OC)ccc23)CN1C(=O)[C@@H](NC(=O)OC(C)(C)C)C(C)(C)C)C(=O)NS(=O)(=O)C(C)C,1b,-,replicon,<0.5 µM
CNC(=O)c1c(-c2ccc(F)c(C)c2)oc2ccc(OC)cc12,-,-,replicon,<30 µM
Cc1cnc(CN2C(=O)C(c3ccc(NC(=O)[C@H]4CCCN4C(=O)OCc4ccccc4)cc3)SC2=Nc2ccc(N3CCOCC3)cc2)cn1,-,-,replicon,<0.1 µM
CN1Cc2ccccc2-c2c(C3CCCCC3)c3ccc(C(=O)O)cc3n2C1=O,-,-,replicon,>10 µM
COc1ccc2c(O[C@@H]3C[C@@H](C(=O)NC4(C(=O)NS(=O)(=O)C5CC5)CC4)N(C(=O)[C@@H](NC(=O)OC(C)(C)C)C(C)C)C3)cc(-c3ccccc3)nc2c1,1b,-,replicon,<5 µM
O=C(Nc1ccc(C2SC(=Nc3cccnc3)N(Cc3cccc(F)c3)C2=O)cc1)[C@H]1CCCN1C(=O)OCc1ccccc1,-,-,replicon,<0.1 µM
CCOc1nc(N)nc2ccc(-c3ccc(NC(=O)C4(N)CC4)c(F)c3)nc12,-,-,replicon,<0.3 µM
C=C[C@@H]1C[C@]1(NC(=O)[C@@H]1C[C@@H](Oc2cc(-c3ccccc3)nc3cc(OC)ccc23)CN1C(=O)[C@@H](NC(=O)OC(C)(C)C)C(C)(C)C)C(=O)NS(=O)(=O)c1ccccc1C#N,1b,-,replicon,<5 µM
CN(C)C(=O)N1CCn2c(c(C3CCCCC3)c3ccc(C(=O)NS(=O)(=O)N(C)C)cc32)-c2ccccc21,-,-,replicon,0.01–1 µM
Nc1nc(O[C@H]2CCOC2)c2nc(-c3ccc(C(=O)NCCN4CCCC4)cc3)ccc2n1,-,-,replicon,<0.3 µM
CNC(=O)c1c(-c2ccc(F)cc2)oc2cc(N(CC(C)=O)S(C)(=O)=O)c(OC(C)C)cc12,-,-,replicon,<1 µM
COC(=O)/C=C/c1ccc(NC(=O)C2(NC(=O)c3ccc4c(C5CCCCC5)c5n(c4c3)C[C@@H](O)[C@@H](O)c3ccccc3-5)CCCC2)cc1,-,-,replicon,0.01–1 µM
CCOc1nc(N)nc2ccc(-c3ccc(NC(=O)OC)cc3)nc12,-,-,replicon,0.3–1 µM
C=C[C@@H]1C[C@]1(NC(=O)[C@@H]1C[C@@H](Oc2cc(-c3ccccc3)nc3cc(OC)ccc23)CN1C(=O)[C@@H](NC(=O)OC(C)(C)C)C(C)(C)C)C(=O)NS(=O)(=O)c1ccc(F)c(Cl)c1,1b,-,replicon,<0.5 µM
O=C(Cn1c(Br)nc(Cl)c1Cl)N/N=C/c1ccccc1OS(=O)(=O)c1ccc(C(F)(F)F)cc1,-,-,replicon,>50 µM
COc1c(-c2ccc3cc(NS(C)(=O)=O)ccc3c2)cc(-n2ccc(=O)[nH]c2=O)cc1C(C)(C)C,genotype 1b Con1,M414T,luciferase,0.028 µM
CCCc1ccc(S(=O)(=O)Oc2ccccc2/C=N/NC(=O)Cc2cccc(OC)c2)cc1,-,-,replicon,<5 µM
CNC(=O)c1c(-c2ccc(F)cc2)oc2cc(-c3c(C)nn(C)c3C)c(OC(C)C)cc12,-,-,replicon,<10 µM
COC(=O)c1ccc2c(C3CCCCC3)c3n(c2c1)CC(=O)N3c1ccccc1,-,-,replicon,>10 µM
CNC(=O)c1c(-c2ccc(F)cc2)oc2cc(C3CCCN3C(=O)NC)c(OC)cc12,-,-,replicon,<10 µM
CN(C)S(=O)NC(=O)c1ccc2c(C3CCCCC3)c3n(c2c1)CC(C(=O)N1CCOCC1)=Cc1ccccc1-3,-,-,replicon,1–10 µM
CC(C)(C)OC(=O)N1CCC(NC(=O)c2ccc3c(c2)nc(-c2ccoc2)n3C2CCCCC2)(C(=O)Nc2ccc(/C=C/C(=O)O)cc2)CC1,-,-,-,≤5 µM
C=C[C@@H]1C[C@]1(NC(=O)[C@@H]1C[C@@H](Oc2cc(-c3ccccc3)nc3cc(OC)ccc23)CN1C(=O)[C@@H](NC(=O)OC(C)(C)C)C(C)(C)C)C(=O)NS(=O)(=O)c1cccc(Br)c1,1b,-,replicon,<0.05 µM
CNC(=O)c1c(-c2ccc(F)cc2)oc2cc(N(C)S(C)(=O)=O)c(OCc3ncc[nH]3)cc12,-,-,replicon,<1 µM
O=C(Cc1ccc(C(F)(F)F)c(F)c1)N/N=C/c1ccccc1OS(=O)(=O)c1ccc(C(F)(F)F)cc1,-,-,replicon,<5 µM
CC1=C(C(=O)N2CCOCC2)Cc2ccccc2-c2c(C3CCCCC3)c3ccc(C(=O)NS(=O)(=O)N(C)C)cc3n21,-,-,replicon,0.01–1 µM
CNC(=O)c1c(-c2ccc(F)cc2)oc2cc(-c3ncc[nH]3)c(OC(C)C)cc12,-,-,replicon,<1 µM
CC[C@@H]1C[C@]1(NC(=O)[C@@H]1C[C@@H](Oc2cc(-c3ccccc3)nc3cc(OC)ccc23)CN1C(=O)[C@@H](NC(=O)OC1CCCC1)C(C)C)C(=O)NS(=O)(=O)C1CC1,1b,-,replicon,<0.05 µM

The first 3 rows once more:

SMILES,strain,changes,method,result
O=C(O)/C=C/c1ccc(NC(=O)C2(NC(=O)c3ccc4c(c3)nc(-c3ccco3)n4C3CCCCC3)CCCC2)cc1,-,-,-,≤5 µM
CCCCNC(=O)c1ccc(-c2ccc3nc(N)nc(OC(C)C)c3n2)cc1,-,-,replicon,0.3–1 µM
CC[C@@H](NC(=O)c1ccc2c(c1)nc(-c1ccoc1)n2C1CCCCC1)C(=O)Nc1ccc(/C=C/C(=O)O)cc1,-,-,-,5–50 µM